Drawing on ChEMBL document CHEMBL5113507, “Discovery of potent ebola entry inhibitors with (3S,4aS,8aS)-2-(3-amino-2-hydroxypropyl) decahydroisoquinoline-3-carboxamide scaffold” (Eur J Med Chem, 2022), this text covers IC90 and IC50 for 2 compounds.

In assay [1] the test system is Huh-7. As to conditions: Ebolavirus, time 2910.0 min.
Assay [2] can be described thus: cells.

The structures appear in SMILES notation.

By IC90 is commonly meant the concentration at which the effect reaches the 90% level. Read a high IC90 as weaker potency. Take `CN(C)CCOc1ccc(/C(=C(/CCCl)c2ccccc2)c2ccccc2)cc1` [TOREMIFENE]: it took 780 nM to reach the 90% level in assay [1] (IC90).

In general, IC50 refers to the point on the concentration scale where inhibition reaches its midpoint. In the case of `CC(C)(C)NC(=O)[C@@H]1C[C@@H]2CCCC[C@@H]2CN1C[C@H](O)CNCCc1ccc(Cl)cc1`, in assay [1], it took 1270 nM to reach the 90% level (IC90). This compound also returned an IC50 in assay [2] of 1200 nM.
